This assay concerns the target HCV polymerase (NS5B570n-Con1) (Hepatitis C virus genotype 1b, UniProt Q9WMX2). Description: HCV NS5B RNA polymerase activity (incorporation of radiolabeled nucleotide into RNA). It counts as biochemical, HCV Con1 strain. The conditions noted are these: read-out: IC50 (μM) HCV Pol; HCV polymerase assay in Example 11. On the procedure: The enzymatic activity of HCV polymerase (NS5B570n-Con1) was measured as the incorporation of radiolabeled nucleotide monophosphates into acid insoluble RNA products. Unincorporated radio labeled substrate was removed by filtration and scintillant was added to the washed and dried filter plate containing radio labeled RNA product. The amount of RNA product generated by NS5B570-Con1 at the end of the reaction was directly proportional to the amount of light emitted by the scintillant.
The N-terminal 6-histidine tagged HCV polymerase, derived from HCV Con1 strain, genotype 1b (NS5B570n-Con1) contains a 21 amino acid deletion at the C-terminus relative to the full-length HCV polymerase and was purified from E. coli strain BL21(DE) pLysS. The construct, containing the coding sequence of HCV NS5B Con1 (GenBank accession number AJ242654) was inserted into the plasmid construct pET17b, downstream of a T7 promoter expression cassette and transformed into E. coli. […]
The amount of light emitted from the scintillant was converted to counts per minute (CPM) on a Topcount® plate reader (Perkin-Elmer, Energy Range: Low, Efficiency Mode Normal, Count Time: 1 min, Background Subtract: none, Cross talk reduction: Off).
Data was analyzed in Excel® (Microsoft) and ActivityBase® (Idbs®). […] All data was expressed as a percentage of the positive control. […]

This is an account of results in patent US8168792B2, “Heterocyclic antiviral compounds” (Roche Palo Alto LLC, priority 2009, dated 2012).

For orientation: IC50 means the midpoint of a concentration-inhibition curve.

As to `CC(C)(C)c1cc2c(c(-c3ccc[nH]c3=O)c1)C(=O)O/C2=C\c1ccc(NS(C)(=O)=O)cc1`, the IC50 is 0.033 µM.

Consider `CC(C)(C)c1cc(-c2ccc[nH]c2=O)c2c(c1)C(Cc1ccc(NS(C)(=O)=O)cc1)OC2=O` (centres unmarked), for which the concentration for half-maximal inhibition (IC50) was determined as 0.027 µM.
